Experimental findings from paper PMC6273649, “Synthesis of Novel Quaternary Ammonium Salts and Their in Vitro Antileishmanial Activity and U-937 Cell Cytotoxicity” (Molecules, 2016) are described below.

Where two headings read alike, the source gives them in different places.

The subject of data set [1] is intracellular amastigotes of L. (V) panamensis-pIR-eGFP. It counts as cell-based. As for the experimental part:
(§1) Virulent L. (V) panamensis MHOM/CO/87/UA140 strain transfected with green fluorescent protein gene called L. (V) panamensis-pIR-eGFP was maintained by successive passaging in golden hamsters (Mesocricetus auratus). Briefly, amastigotes were aspirated from cutaneous lesions of hamsters experimentally infected with promastigotes of L. (V) panamensis-pIR-eGFP. Samples were cultured in biphasic culture with Novy-MacNeal-Nicholle (NNN) medium as solid phase and PBS plus glucose, pH 6.9 as liquid phase and incubated at 26 °C to obtain promastigotes. Medium was changed every week until 2 months.
Intracellular amastigotes were obtained after infection of U-937 cells with promastigotes. Briefly, U-937 cells were dispensed in 24-well plates at a concentration of 300,000 cells/well and were treated with 1 µM of phorbol myristate acetate (PMA) (Sigma) for 48 h at 37 °C. Then, cells were infected with promastigotes in stationary growth phase (day 5) at a ratio of 1:15 cell/parasite and incubated for 3 h at 34 °C in 5% CO2. […] After 24 h of infection, cells were ready to be used in antileishmanial testing assay as described below.
The effect of compounds against intracellular amastigotes of L. (V) panamensis-pIR-eGFP was evaluated by flow cytometry using the methodology described by others. […] Infected and treated cells were maintained at 34 °C and 5% CO2 for 72 h. After 72 h, cells were washed twice with 1 mL of cold PBS and cells were removed from the bottom plate with a trypsin/EDTA ([…]) solution. Recovered cells were centrifuged at 1100 rpm for 10 min at 4 °C, the supernatant was discarded and cells were washed with 1 mL of cold PBS and centrifuged at 1100 rpm for 10 min at 4 °C. Supernatant was discarded and cells were suspended in 500 μL of PBS and analyzed by flow cytometry (FC 500MPL, Cytomics, Brea, CA, USA) using histogram analyses (Figure 2). […] Each concentration of compounds was tested in triplicate in two independent experiments.
The antileishmanial activity in intracellular amastigotes was determined according to the reduction of infected cells and parasite load (viable parasites inside infected cells) obtained for each experimental condition. The percentage of infected cell inhibition and parasite load for each concentration of each compound were calculated first using Equation (3): % infection = (% infected and treated cells ÷ % infected and untreated cells) × 100(3)
And then, the percentage of infection inhibition was calculated using Equation (4): % Inhibition = 100 − % infection(4)

Data set [2] deals with axenic amastigotes of L. (V) panamensis. The class given is cell-based. As for the experimental part:
as §1
The axenic amastigotes were obtained from promastigotes cutured in Schneider’s medium, as described elsewhere. Briefly, promastigotes of L. (V) panamensis-pIR-eGFP at 5 × 10^6 parasites/mL were cultured in Schneider medium (Sigma), pH 5.4 supplemented with 20% FBS and 1% antibiotics and incubation at 26 °C. Every three days, medium was changed and temperature was increased one degree each time until it reached 32 °C at which the transformation of the promastigotes into axenic amastigotes is achieved. After three days of growing as axenic amastigotes, parasites were ready to be used in the antileishmanial testing assay as described below.
The ability of compounds to kill axenic amastigotes of L. (V) panamensis was determined based on the viability of the parasites after exposure to each compound evaluated by the MTT method following the methodology described by others. Axenic amastigotes obtained as described above were harvested, washed, and adjusted at 2 × 10^6 parasites/mL in fresh Schneider’s medium with 20% FBS. Into each well of a 96-well plate 100 µL of parasite suspension (2 × 10^5 axenic amastigotes) were dispensed and then 100 µL of each concentration of the corresponding compound were added. […] Plates were incubated at 32 °C. After 72 h of incubation, the effect of each compound was determined by adding 10 µL/well of MTT and incubating at 32 °C for 3 h. The reaction was stopped as described above and the quantity of formazan produced was measured in a plate reader spectrophotometer (Bio-Rad) set at 570 nm. Axenic amastigotes cultivated in the absence of any compound but maintained under the same conditions were used as controls for growth and viability (negative control) while parasites cultivated in the presence of MA were used as controls for leishmanicidal activity (positive control). Assays were performed at least twice with three replicates per each concentration tested.
In turn, activity of compounds with axenic amastigotes was determined according to the reduction of parasite growth percentages obtained for each experimental condition. The percentage of parasite growth was calculated first using Equation (5): % parasite growth = (O.D. treated ax. amastigotes)/(O.D. of untreated ax. amastigotes) × 100(5) where the O.D. of the untreated axenic amastigotes corresponds to 100% parasite growth. Then, the percentage of parasite growth inhibition was calculated using Equation (6): % parasite growth inhibition = 100 − % parasite growth(6)

[3] abbreviates: Selectivity Index = LC50/EC50 (U-937 LC50 / intracellular amastigote EC50).
Where [4] appears, read: Selectivity Index = LC50/EC50 (U-937 LC50 / axenic amastigote EC50).

In the case of `C[C@@H]1[C@H](O)[C@@H](C)/C=C/C=C/C=C/C=C/C=C/C=C/C=C/[C@H](O[C@@H]2O[C@H](C)[C@@H](O)[C@H](N)[C@@H]2O)C[C@@H]2O[C@](O)(C[C@@H](O)C[C@@H](O)[C@H](O)CC[C@@H](O)C[C@@H](O)CC(=O)O[C@H]1C)C[C@H](O)[C@H]2C(=O)O` [AmB, Amphotericin B, reference compound], the “Intracellular Amastigotes SI” value in data set [1] is 560. In addition, the “Axenic Amastigotes SI” value in data set [2] (ratio CC50 / EC50) came out at 690.

As for `C[N+](C)(CCl)CCC=C(c1ccccc1)c1ccccc1.[I-]` [Compound 1a, N-Chloromethyl-N,N-dimethyl-N-(4,4-diphenylbut-3-en-1-yl)ammonium iodide], the “Intracellular Amastigotes SI” value in data set [1] (setting [3]) amounted to 1.2. In addition, the “Axenic Amastigotes SI” value in data set [2] (setting [4]) was 1.3.

For the compound `C[N+](C)(CCl)CCCC=C(c1ccccc1)c1ccccc1.[I-]` [Compound 1b, N-Chloromethyl-N,N-dimethyl-N-(5,5-diphenylpent-4-en-1-yl)ammonium iodide], the “Intracellular Amastigotes SI” value in data set [1] (setting [3]) is recorded as 0.5. The “Axenic Amastigotes SI” value in data set [2] (setting [4]) is 0.4.

For the compound `C[N+](C)(CCl)CCCCC=C(c1ccccc1)c1ccccc1.[I-]` [Compound 1c, N-Chloromethyl-N,N-dimethyl-N-(6,6-diphenylhex-5-en-1-yl)ammonium iodide], the “Intracellular Amastigotes SI” value in data set [1] (setting [3]) amounted to 0.4. In addition, the “Axenic Amastigotes SI” value in data set [2] (setting [4]) is on record as 0.5.

`C[N+](C)(CI)CCC=C(c1ccccc1)c1ccccc1.[I-]` [Compound 2a, N-Iodomethyl-N,N-dimethyl-N-(4,4-diphenylbut-3-en-1-yl)ammonium iodide]: the “Intracellular Amastigotes SI” value in data set [1] (setting [3]) was 1.7. Also, the “Axenic Amastigotes SI” value in data set [2] (setting [4]) came out at 1.3.

As to `C[N+](C)(CI)CCCC=C(c1ccccc1)c1ccccc1.[I-]` [Compound 2b, N-Iodomethyl-N,N-dimethyl-N-(5,5-diphenyl-4-penten-1-yl)ammonium iodide], the “Intracellular Amastigotes SI” value in data set [1] (setting [3]) was 0.4. Also, in data set [2] (setting [4]), the “Axenic Amastigotes SI” value is 0.5.

As for `C[N+](C)(CI)CCCCC=C(c1ccccc1)c1ccccc1.[I-]` [Compound 2c, N-Iodomethyl-N,N-dimethyl-N-(6,6-diphenylhex-5-en-1-yl)ammonium iodide], the “Intracellular Amastigotes SI” value in data set [1] (setting [3]) is listed as 0.5. Also, in data set [2] (setting [4]), the “Axenic Amastigotes SI” value was 0.7.

In the case of `C[N+](C)(C)CCC=C(c1ccccc1)c1ccccc1.[I-]` [Compound 3a, N,N,N-Trimethyl-N-(4,4-diphenylbut-3-en-1-yl)ammonium iodide], the “Intracellular Amastigotes SI” value in data set [1] (setting [3]) was determined as 1.3. Moreover, in data set [2] (setting [4]), the “Axenic Amastigotes SI” value came to 1.5.

As to `C[N+](C)(C)CCCC=C(c1ccccc1)c1ccccc1.[I-]` [Compound 3b, N,N,N-Trimethyl-N-(5,5-diphenylpent-4-en-1-yl)ammonium iodide], the “Intracellular Amastigotes SI” value in data set [1] (setting [3]) is listed as 1.2. Moreover, the “Axenic Amastigotes SI” value in data set [2] (setting [4]) was found to be 1.1.

For the compound `C[N+](C)(C)CCCCC=C(c1ccccc1)c1ccccc1.[I-]` [Compound 3c, N,N,N-Trimethyl-N-(6,6-diphenylhex-5-en-1-yl)ammonium iodide], the “Intracellular Amastigotes SI” value in data set [1] (setting [3]) is given as 0.3. The “Axenic Amastigotes SI” value in data set [2] (setting [4]) amounted to 0.4.

On to `C[N+](C)(CCl)CCO` [Compound 4a, N-Choromethyl-N,N-dimethyl-N-(2-hydroxyet-1-yl)ammonium iodide], for which the “Intracellular Amastigotes SI” value in data set [1] (setting [3]) is listed as 0.6. Moreover, the “Axenic Amastigotes SI” value in data set [2] (setting [4]) is recorded as 0.7.

For the compound `C[N+](C)(CI)CCO` [Compound 4b, N-Iodomethyl-N,N-dimethyl-N-(2-hydroxyet-1-yl)ammonium iodide], the “Intracellular Amastigotes SI” value in data set [1] (setting [3]) was determined as 0.7. The “Axenic Amastigotes SI” value in data set [2] (setting [4]) came out at 0.9.

`C[N+](C)(C)CCO.[I-]` [Compound 4c, (2-Hydroxyethyl)trimethylammonium iodide, reference compound]: the “Intracellular Amastigotes SI” value in data set [1] (setting [3]) is reported as 2.5. Moreover, the “Axenic Amastigotes SI” value in data set [2] (setting [4]) is 7.9.

Regarding “meglumine antimoniate [MA, reference compound]”, the “Intracellular Amastigotes SI” value in data set [1] (setting [3]) came out at 56.6.
